PubChem BioAssay AID624099 | ICCB-Longwood – 2012
In all, the deposit lists about 21,000 reagents; below is a part drawn at random. 497 of all reagents (2.4%) count as active. 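Higher z means weaker E2 silencing; only reporter increases were scored, and knock-downs that hurt cell survival may mask genuine repressor factors.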 Reagent sequences are not shown.

- Purpose: 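Human genes that papillomavirus E2 requires to repress the HPV18 LCR promoter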 (primary screen)
- Cell system: human C33A cervical carcinoma cells (HPV-negative) stably expressing BPV1 E2 and an HPV18 LCR luciferase reporter
- Reagent: siRNA pool against human genes, 40 nM
- Timing: 72 h
- Read-out: 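Per-well luciferase luminescence, z-scored on each plate against the plate mean and SD with control wells left out, then averaged across three replicate plates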
- Direction: mean z-score and z-score: higher = stronger reporter signal, weaker E2 silencing
- Hit rule: 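Hit if mean z-score reaches 2 and two or more of three replicate z-scores also reach 2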

COQ10A: mean z-score = -1.26; z-score, replicate A = -1.31; z-score, replicate B = -1.24; z-score, replicate C = -1.22; call = inactive
PNISR: mean z-score = 0.06; z-score, replicate A = 0.09; z-score, replicate B = -0.04; z-score, replicate C = 0.13; call = inactive
LOC401386 (retired record): mean z-score = -0.67; z-score, replicate A = -0.4; z-score, replicate C = -0.95; call = inactive
RNPC3: mean z-score = 0.92; z-score, replicate A = 0.92; z-score, replicate B = 1.12; z-score, replicate C = 0.72; call = inactive
FUNDC2P1: mean z-score = -0.46; z-score, replicate A = -0.29; z-score, replicate B = -0.9; z-score, replicate C = -0.19; call = inactive
LIF: mean z-score = 0.14; z-score, replicate A = -0.05; z-score, replicate B = 0.46; z-score, replicate C = 0.02; call = inactive
XCL1: mean z-score = 1.54; z-score, replicate A = 1.28; z-score, replicate B = 1.79; z-score, replicate C = 1.56; call = inactive
GPN2: mean z-score = 1.22; z-score, replicate A = 1.4; z-score, replicate B = 1.07; z-score, replicate C = 1.19; call = inactive
YY2: mean z-score = -0.24; z-score, replicate A = -0.75; z-score, replicate B = 0.24; z-score, replicate C = -0.2; call = inactive
PPP2R5E: mean z-score = -1.08; z-score, replicate A = -0.88; z-score, replicate B = -1.32; z-score, replicate C = -1.04; call = inactive
BCL6: mean z-score = 0.2; z-score, replicate A = 0.39; z-score, replicate B = 0; z-score, replicate C = 0.21; call = inactive
H2AZ2P1: mean z-score = -1.12; z-score, replicate A = -1.02; z-score, replicate B = -1.24; z-score, replicate C = -1.09; call = inactive
CREB3: mean z-score = -0.49; z-score, replicate A = -0.54; z-score, replicate B = -0.59; z-score, replicate C = -0.33; call = inactive
NALF2: mean z-score = 1.7; z-score, replicate A = 2.24; z-score, replicate B = 1.66; z-score, replicate C = 1.22; call = inactive
GEMIN6: mean z-score = 0.47; z-score, replicate A = 0.34; z-score, replicate B = 0.74; z-score, replicate C = 0.32; call = inactive
GNL3LP1: mean z-score = -0.28; z-score, replicate A = -0.39; z-score, replicate B = -0.4; z-score, replicate C = -0.06; call = inactive
TOR1B: mean z-score = -0.72; z-score, replicate A = -0.3; z-score, replicate B = -1; z-score, replicate C = -0.85; call = inactive
VWA7: mean z-score = 1.4; z-score, replicate A = 1.54; z-score, replicate B = 1.38; z-score, replicate C = 1.29; call = inactive
ADGRG1: mean z-score = 0.33; z-score, replicate A = 0.53; z-score, replicate B = 0.06; z-score, replicate C = 0.38; call = inactive
LOC388496 (retired record): mean z-score = -0.17; z-score, replicate A = 0.11; z-score, replicate B = -0.1; z-score, replicate C = -0.51; call = inactive
IMP4: mean z-score = -0.44; z-score, replicate A = -0.33; z-score, replicate B = -0.68; z-score, replicate C = -0.32; call = inactive
